Patent US5527894
Construct, isoform or probe ends are uncertain for at least one entry.

Target: HIV-1 tat protein (Human immunodeficiency virus 1) (UniProt P04608)
Experiment: binding assay
Conditions: CITED natural tat-TAR interaction; purified recombinant protein; protein details: purchased from American Bio-Technologies, Inc.

CCAGAUCUGAGCCUGGGAGCUCUCUGG [TAR RNA]: binds.
